Anti-infective test results gathered from many reports (values: NIAID ChemDB through PubChem).

Common to all: target-level tests; agent: Hepatitis B virus; protein: DNA polymerase; measure: IC50

a–b is a range or a potency band. Neighbouring rows are from separate reports. ICn is the concentration giving n% inhibition. Blank or dashed fields: not listed here.

{"smiles": "CCN(CC)CCNC(=O)c1ccc(C)nc1Nc1ccc2cn[nH]c2c1", "value": "~1 µg/mL"}
{"smiles": "COc1nc(Nc2ccc3cn[nH]c3c2)nc(N2CCN(CCO)CC2)n1", "value": ">1 µg/mL"}
{"smiles": "Nc1nc2c(ncn2CC[C@H](CO)COP(=O)(O)OP(=O)(O)OP(=O)(O)O)c(=O)[nH]1", "value": "2.5 µM"}
{"smiles": "COc1nc(NCCN(C)C)nc(Nc2ccc3[nH]ncc3c2)n1", "value": ">1 µg/mL"}
{"smiles": "Nc1nc2c(ncn2[C@H]2C[C@H](F)[C@@H](COP(=O)(O)OP(=O)(O)OP(=O)(O)O)O2)c(=O)[nH]1", "value": "2.7 µM"}
{"smiles": "COc1nc(Nc2ccc3cn[nH]c3c2)nc(N2CCOCC2)n1", "value": "0.1–1 µg/mL"}
{"smiles": "Cc1ccc(C(=O)NN2CCOCC2)c(Nc2ccc3cn[nH]c3c2)n1", "value": "~0.1 µg/mL"}
{"smiles": "Nc1nc2c(ncn2COCCOP(=O)(O)OP(=O)(O)OP(=O)(O)O)c(=O)[nH]1", "value": "10 µM"}
{"smiles": "COc1nc(NCCCN2CCOCC2)nc(Nc2ccc3cn[nH]c3c2)n1", "value": "<0.01 µg/mL"}
{"smiles": "Cc1cn([C@H]2O[C@@H](CO)[C@H](O)[C@H]2F)c(=O)[nH]c1=O", "value": "0.1 µM"}
{"smiles": "Cc1ccc(C(=O)NCCN2CCCCC2)c(Nc2ccc3cn[nH]c3c2)n1", "value": "<0.1 µg/mL"}
{"smiles": "COc1nc(Nc2ccc3cn[nH]c3c2)nc(NN2CCN(C)CC2)n1", "value": "0.1–1 µg/mL"}
{"smiles": "Cc1ccc(C(=O)NC2CCC(O)CC2)c(Nc2ccc3[nH]ncc3c2)n1", "value": "~0.01 µg/mL"}
{"smiles": "C=C1[C@H](COP(=O)(O)OP(=O)(O)OP(=O)(O)O)[C@@H](O)C[C@@H]1n1cnc2c(=O)[nH]c(N)nc21", "strain": "WILD TYPE", "value": "0.00043 µM"}
{"smiles": "Cc1ccc(C(=O)Nc2cccnc2)c(Nc2ccc3cn[nH]c3c2)n1", "value": "<1 µg/mL"}
{"smiles": "CCOC(=O)C1=CN(N2CCN(c3nc(Nc4ccc5cn[nH]c5c4)nc(OC)n3)CC2)C(SC)N=C1", "value": "0.1–1 µg/mL"}
{"smiles": "Nc1nc(=O)n([C@@H]2C=C[C@H](CO)O2)cc1F", "value": "0.0025 µM"}
{"smiles": "Cc1ccc(C(=O)NN2CCOCC2)c(Nc2ccc3[nH]ncc3c2)n1", "value": "<0.1 µg/mL"}

A second listing of 2 rows from above:

smiles,strain,value
Cc1ccc(C(=O)NCCN2CCCCC2)c(Nc2ccc3cn[nH]c3c2)n1,-,<0.1 µg/mL
COc1nc(NCCN(C)C)nc(Nc2ccc3[nH]ncc3c2)n1,-,>1 µg/mL